Experimental findings from paper PMC4081560 (PLoS ONE, 2014) are described below.

The conditions of the series: mouse.

In the case of `NC(=O)c1nc(F)c[nH]c1=O` [Favipiravir, 6-fluoro-3-hydroxy-2-pyrazinecarboxamide], the in vivo toxicity result was “no in vivo toxicity was observed”. `CCC(CC)[C@H](NC(C)=O)[C@@H]1[C@H](O)[C@@H](C(=O)O)C[C@H]1N=C(N)N` [Peramivir]: the in vivo toxicity entry is recorded as “no in vivo toxicity was observed”.
